Literature values, collected in patent US7456274B2, “Inhibition of metallo-β-lactamase” (priority 2003, dated 2008).

Tested on: class B β-lactamases
Conditions: Felici and Amicosante, 1995, Matagne et al.; cited from earlier work

penicillanic acid sulfone
inhibition of class B β-lactamases: do not inhibit

6-β-iodopenicillanic acid
inhibition of class B β-lactamases: do not inhibit
